Measurements from patent US20260217797A1.

Legend:
Experiment in all cases: cell-based or functional assay
[1] = molecular target: SARS-CoV-2 Omicron (B.1.529) spike protein (on reporter virus particles) (SARS-CoV-2) (UniProt P0DTC2)
[2] = molecular target: SARS-CoV-2 Delta (B.1.617.2) spike protein (on reporter virus particles) (SARS-CoV-2) (UniProt P0DTC2)
[3] = molecular target: SARS-CoV-2 Beta (B.1.351) spike protein (on reporter virus particles) (SARS-CoV-2) (UniProt P0DTC2)

| Substance | Omicron PsV IC50 [1] | Delta PsV IC50 [2] | Delta IC50 [2] | Beta IC50 [3] |
| --- | --- | --- | --- | --- |
| RGN10987 (antibody) | 0.242 nM | 0.523 nM | – | – |
| RGN10933 (antibody) | 32.5 nM | 0.29 nM | 0.041 nM | 29 nM |
